Experimental data: paper PMC6208970, “Linking cytochrome P450 enzymes from Mycobacterium tuberculosis to their cognate ferredoxin partners” (Applied Microbiology and Biotechnology, 2018)

Assays:
Experiment in all cases: purified protein
[1] = system: NC(=O)C1=CN([C@@H]2O[C@H](COP(=O)(O)OP(=O)(O)OC[C@H]3O[C@@H](n4cnc5c(N)ncnc54)[C@H](O)[C@@H]3O)[C@@H](O)[C@H]2O)C=CC1; details: pH 7.4; varied: cofactor
[2] = system: O=C1C(Cl)=CC(=Nc2ccc(O)cc2)C=C1Cl; details: pH 7.4
[3] = system: NC(=O)C1=CN([C@@H]2O[C@H](COP(=O)(O)OP(=O)(O)OC[C@H]3O[C@@H](n4cnc5c(N)ncnc54)[C@H](OP(=O)(O)O)[C@@H]3O)[C@@H](O)[C@H]2O)C=CC1; details: pH 7.4; varied: cofactor

FdrA (Mycobacterium tuberculosis H37Rv) was tested, and the Km [1] was 92 µM and the Km [2] was 24 ± 1 µM.

FprA (Mycobacterium tuberculosis H37Rv) was tested, and the Km [1] was 85 ± 1 µM and the Km [3] was 1.2 µM.
